Anti-infective test results gathered from many reports (values: NIAID ChemDB through PubChem).

Shared fields: tests in culture; organism: Mycobacterium tuberculosis

Conditions beyond the fields shown may differ between rows. a–b is a range or a potency band. Percent inhibition refers to the dose given; in toxicity tests it is the harm to the cells. MIC bound comes from a single tested concentration. Blank or dashed fields: not listed here. ECn is the concentration giving n% inhibition of infection, replication or growth. MIC50, MIC90 and the like: level of inhibition, or share of isolates inhibited.

SMILES,strain,cell line,method,dose,endpoint,mutations,value
C=Cc1ncnc2c1ncn2Cc1ccccc1,H37Rv,-,BACTEC,-,EC50,-,>12.5 µg/mL
Cc1nn(C(=O)c2ccncc2)c(C)c1N=Nc1ccc(S(=O)(=O)N=C(N)N)cc1,H37Rv,-,BACTEC,-,MIC bound,-,>12.5 µg/mL
C(#Cc1ncc2ncn(Cc3ccccc3)c2n1)c1ccccc1,H37Rv,-,BACTEC,-,EC50,-,>12.5 µg/mL
COc1nc2ccc(Br)cc2cc1[C@@H](c1ccccc1)[C@@](O)(CCN(C)C)c1cccc2ccccc12,H37Rv,-,fluorescence,-,MIC90,-,0.06 µg/mL
CO[C@H]1/C=C/O[C@@]2(C)Oc3c(C)c(O)c4c(O)c(c(/C=N/N5CCN(C)CC5)c(O)c4c3C2=O)NC(=O)/C(C)=C\C=C\[C@H](C)[C@H](O)[C@@H](C)[C@@H](O)[C@@H](C)[C@H](OC(C)=O)[C@@H]1C,XZ06008,-,resazurin,-,MIC,Extensively drug-resistant,>256 µg/mL
C(#Cc1ncnc2c1ncn2Cc1ccccc1)c1ccccc1,H37Rv,-,BACTEC,-,EC50,-,>12.5 µg/mL
CO[C@H]1/C=C/O[C@@]2(C)Oc3c(C)c(O)c4c(O)c(c5c(c4c3C2=O)NC2(CCN(C)CC2)N=5)=NC(=O)/C(C)=C\C=C\[C@H](C)[C@H](O)[C@@H](C)[C@@H](O)[C@@H](C)[C@H](OC(C)=O)[C@@H]1C,H37Rv,-,resazurin,-,MIC,-,≤0.1 µg/mL
C=CCN1CCCC[C@H]1[C@@H](O)c1cc(C(F)(F)F)nc2c(C(F)(F)F)cccc12,-,-,-,-,MIC,-,30 µM
CCn1cc(C(=O)O)c(=O)c2cc(F)c(N3CCN(CC(=O)c4ccc(F)cc4)CC3)nc21,H37Rv,-,-,-,EC50,-,>6.25 µg/mL
O=C1/C(=C/c2ccccc2Br)COc2ccccc21,H37Rv,-,broth dilution / resazurin,10 µg/mL,inhibition,-,73%
COc1cc(O)c(C(C)c2ccccc2)cc1N=O,H37Rv,-,BACTEC,12.5 µg/mL,inhibition,-,42%
Cc1cccc(/C=C2\COc3ccccc3C2=O)c1,H37Rv,-,broth dilution / resazurin,-,EC50,-,0.46 µg/mL
COC(=O)C(CO)NC(=O)C(CC(C)C)NC(=O)C(CC(C)C)NC(=O)OCc1ccccc1,H37Rv,-,BACTEC,12.8 µg/mL,inhibition,-,27%
C[C@H]1COc2c(N3CCN(C)CC3)c(F)cc3c(=O)c(C(=O)O)cn1c23,18 strains,-,-,-,MIC90,-,1 µg/mL
NCCCNCc1ccc(Nc2nc(=O)n(CCCCN3CCC(N)CC3)cc2F)nc1,H37Rv,-,turbidity,-,EC50,-,<0.5 µM
CCn1cc(C(=O)O)c(=O)c2cc(F)c(N3CCN(C/C(=N/O)c4ccc(F)cc4)CC3)nc21,H37Rv,-,-,-,MIC,-,>6.25 µg/mL
CO[C@H]1/C=C/O[C@@]2(C)Oc3c(C)c(O)c4c(O)c(c(/C=N/N5CCN(C)CC5)c(O)c4c3C2=O)NC(=O)/C(C)=C\C=C\[C@H](C)[C@H](O)[C@@H](C)[C@@H](O)[C@@H](C)[C@H](OC(C)=O)[C@@H]1C,89996,-,-,-,MIC,-,≥2 µg/mL
CCOC(=O)C1=C(Nc2ccccc2)OC/C1=N/NC(=O)Cc1ccccc1,H37Rv,-,BACTEC,-,MIC bound,-,>12.5 µg/mL
CCn1cc(C(=O)O)c(=O)c2cc(F)c(N3CCN(C/C(=N/O)c4ccc(Br)cc4)CC3)nc21,H37Rv,-,-,6.25 µg/mL,inhibition,-,49%
O=C(NCC(=O)N1CCN(c2ccc(N3C[C@H](Cn4ccnn4)OC3=O)cc2F)CC1)C1=CC=C([N+](=O)[O-])C1,H37Rv,-,broth dilution / visual reading,-,MIC,-,0.5 µM
O=C(O)c1ccc(CN2CCCC[C@H]2[C@@H](O)c2cc(C(F)(F)F)nc3c(C(F)(F)F)cccc23)cc1,-,-,-,-,MIC,-,94 µM
CCSC(SCC)[C@H](O)[C@H](O)[C@@H](O)[C@H](C)O,H37Rv,-,resazurin,6.25 µg/mL,inhibition,-,3%
NC1CCN(CCCCn2ccc(Nc3cc(CO)ccn3)nc2=O)CC1,H37Rv,-,turbidity,-,EC50,-,0.5–1 µM
COc1ccc(-c2oc3cc(O)c(O)c(O)c3c(=O)c2OC)cc1,-,-,-,-,MIC,-,50 µg/mL
O=C(O)c1cn(-c2ccc(F)cc2F)c2cc(N3CCSCC3)c(F)cc2c1=O,ATCC35801,-,-,-,MIC,-,14.87 µM
CCOC(=O)CC(=O)NCC(=O)N1CCN(c2ccc(N3C[C@H](Cn4cc(C)nn4)OC3=O)cc2F)CC1,H37Rv,-,visual reading,-,MIC,-,>47 µM
CCCCC[C@H]1CCCCCCCCCC(=O)O[C@H]2[C@H](O)[C@@H](CO)OC(O[C@H]3[C@H](O1)O[C@H](C)[C@H](O)[C@@H]3O)[C@@H]2OC1O[C@@H](C)[C@H](OC(=O)C(C)C)[C@@H](OC2O[C@@H](C)[C@H](O)[C@@H](O)[C@H]2O)[C@H]1OC(=O)C(C)CC,-,-,-,-,MIC,-,16 µg/mL
O=C(NCC(=O)N1CCN(c2ccc(N3C[C@H](Cn4ccnn4)OC3=O)cc2F)CC1)c1cccnc1,SRI 1369,-,broth dilution / visual reading,-,MIC,Isoniazid-resistant,2 µM
CN[C@@H]1[C@H](O[C@H]2[C@H](O[C@H]3[C@H](O)[C@@H](O)[C@H](N=C(N)N)[C@@H](O)[C@@H]3N=C(N)N)O[C@@H](C)[C@]2(O)C=O)O[C@@H](CO)[C@H](O)[C@H]1O,9120,-,-,-,MIC,-,<2 µg/mL
COC(=O)C(CO)NC(=O)C(Cc1cnc[nH]1)N(C(=O)OCc1ccccc1)C(=O)OCc1ccccc1,H37Rv,-,BACTEC,-,MIC,-,≥12.8 µg/mL
CCCCC[C@H]1CCCCCCCCCC(=O)O[C@H]2[C@H](O)[C@@H](CO)OC(O[C@H]3[C@H](O1)O[C@H](C)[C@H](O)[C@@H]3O)[C@@H]2OC1O[C@@H](C)[C@H](OC(=O)C(C)CC)[C@@H](OC2O[C@@H](C)[C@H](O)[C@@H](O)[C@H]2O)[C@H]1OC(=O)C(C)CC,-,-,-,-,MIC,-,16 µg/mL
CO[C@H]1/C=C/O[C@@]2(C)Oc3c(C)c(O)c4c(=O)c(c5oc6cc(N7CCN(CC(C)C)CC7)cc(=O)c6nc5c4c3=C2O)NC(=O)/C(C)=C\C=C\[C@H](C)[C@H](O)[C@@H](C)[C@@H](O)[C@@H](C)[C@H](OC(C)=O)[C@@H]1C,29 (rifampicin-resistant),-,-,-,MIC,-,4 µg/mL
C=C1C(=O)O[C@@H]2/C=C(\C)C3C[C@H](O)[C@@](C)(CC(OC(=O)/C(C)=C\C)[C@@H]12)O3,H37Rv,-,BACTEC,12.5 µg/mL,inhibition,-,18%
O=C(O)c1cnccn1,H5009,-,-,-,MIC,-,480 µg/mL
COc1c(C)n(CCO)ccc1=O,H37Rv,-,BACTEC,12.5 µg/mL,inhibition,-,-4%
CC1CN(c2cc3c(cc2F)c(=O)c(C(=O)O)cn3C2CC2)CC(C)O1,ATCC35801,-,-,-,MIC,-,1.08 µM
c1ccc(Cn2cnc3cnc(-c4ccco4)nc32)cc1,H37Rv,-,BACTEC,-,EC50,-,>12.5 µg/mL
CCCCC[C@H]1CCCCCCCCCC(=O)O[C@H]2[C@H](O)[C@@H](CO)OC(O[C@H]3[C@H](O1)O[C@H](C)[C@H](O)[C@@H]3O)[C@@H]2OC1O[C@@H](C)[C@H](OC(=O)[C@H](C)[C@@H](C)O)[C@@H](OC2O[C@@H](C)[C@H](O)[C@@H](O)[C@H]2O)[C@H]1OC(=O)C(C)CC,-,-,-,-,MIC,-,32 µg/mL
CN(C)c1ccc(O)c2c1C[C@H]1C[C@H]3[C@H](N(C)C)C(=O)C(C(N)=O)=C(O)[C@@]3(O)C(=O)C1=C2O,H37Ra,-,-,-,Mean MIC,-,2 µg/mL
CC(C)(C)n1cc(C(=O)O)c(=O)c2cc(F)c(N3CCN(Cc4ccc5c(c4)OCO5)CC3)cc21,ATCC35801,-,-,-,MIC,-,0.81 µM
Nc1ccc(C(=O)O)c(O)c1,H37Ra,-,-,-,Mean MIC,-,1.75 µg/mL
COc1ccc(C2SC(N)=Nc3c2c(C)nn3C(=O)c2ccncc2)cc1OC,H37Rv,-,BACTEC,12.5 µg/mL,inhibition,-,98%
Cc1ccc(/C=C2\CCCc3ccccc3C2=O)cc1,H37Rv,-,broth dilution / resazurin,12.5 µg/mL,inhibition,-,0%
Nc1nnc2nc(C(C(=O)c3ccc(F)cc3)c3nc4nnc(N)n4[nH]c3=O)c(=O)[nH]n12,H37Rv,-,BACTEC,-,MIC bound,-,>12.5 µg/mL
NC1CCN(CCCCn2ccc(Nc3ccc(CNC4CCNCC4)cn3)nc2=O)CC1,H37Rv,-,turbidity,-,EC50,-,<0.5 µM
CO[C@H]1/C=C/O[C@@]2(C)Oc3c(C)c(O)c4c(O)c(c(/C=N/N5CCN(C)CC5)c(O)c4c3C2=O)NC(=O)/C(C)=C\C=C\[C@H](C)[C@H](O)[C@@H](C)[C@@H](O)[C@@H](C)[C@H](OC(C)=O)[C@@H]1C,H37Ra,-,-,-,Mean MIC,-,0.005 µg/mL
COC(=O)c1cccc2c1=CC1=C3N=c4cc(OC)ccc4=C3CCN1C=2.O=S(=O)(O)O,H37Rv,-,BACTEC,-,MIC bound,-,>12.5 µg/mL
COc1cc(O)c2c(c1)C(=O)c1cc(C)cc(O)c1C2=O,-,-,-,-,MIC,-,>128 µg/mL
OC(CCl)c1ccc2ccc3c(c2c1)Nc1ccccc1S3,H37Rv,-,BACTEC,-,MIC,-,6.25 µg/mL
C/C(=C\CC[C@H](C)[C@@H]1CC[C@]2(C)C3=CCC4C(C)(C)C(O)CC[C@]4(C)C3CC[C@@]12C)C(=O)O,-,-,-,-,MIC,-,32 µg/mL
CC1(N)CCN(CCCCn2ccc(Nc3ccc(CNCCCN)cn3)nc2=O)CC1,H37Rv,-,turbidity,-,EC50,-,0.5–1 µM
CC(=O)Oc1ccc(/C=C/c2cc(O)cc(O)c2)cc1,-,-,-,-,MIC,-,32 µg/mL
Cc1cccc(/C=C2\CCCCCC2=O)c1,H37Rv,-,broth dilution / resazurin,12.5 µg/mL,inhibition,-,0%
CC(C)=CC(=O)O[C@@H]1[C@H]2C(C)=CC(=O)C(O)[C@]2(C)[C@H]2[C@@]3(O)OC[C@@]24[C@@H]1OC(=O)C[C@H]4[C@@H](C)[C@H]3O,H37Rv,-,BACTEC,-,MIC bound,-,>12.5 µg/mL
COc1ccc(-c2cc(=O)c3c(O)cc(OC)cc3o2)c(-c2c(O)cc(O)c3c(=O)cc(-c4ccc(O)cc4)oc23)c1,-,-,-,-,MIC,-,64 µg/mL
C=Cc1nc(Cl)c2ncn(Cc3ccccc3)c2n1,H37Rv,-,BACTEC,-,EC50,-,>12.5 µg/mL
COc1ccc(-c2cc(C(F)(F)F)nc3c(C(F)(F)F)cccc23)cc1,-,-,-,-,MIC,-,>128 µM
CC1=C/C(=N\NC(=O)c2ccc[n+](C)c2)CC(C)(C)C1.Cc1ccc(S(=O)(=O)[O-])cc1,H37Rv,-,BACTEC,-,MIC bound,-,>12.5 µg/mL
Nc1cccc(-c2cc(C(F)(F)F)nc3c(C(F)(F)F)cccc23)c1,-,-,-,-,MIC,-,55 µM
CC(=O)c1nc(/C=C/c2ccccc2)c2ncn(Cc3ccccc3)c2n1,H37Rv,-,BACTEC,-,EC50,-,<12.5 µg/mL
COc1cc(C(=O)NCC(=O)NN)cc(OC)c1OC,H37Rv,-,BACTEC,-,MIC bound,-,>12.5 µg/mL
CCn1cc(C(=O)O)c(=O)c2cc(F)c(N3CCN(C/C(=N/O)c4ccc(F)cc4)CC3)cc21,H37Rv,-,-,6.25 µg/mL,inhibition,-,1%
O=C(Nc1cccnc1)c1ccc(CSc2ccc(Cl)cc2)o1,H37Rv,VERO,BACTEC,-,MIC,-,3.13 µg/mL
C(=C\c1nc(-c2ccccc2)c2ncn(Cc3ccccc3)c2n1)/c1ccccc1,H37Rv,-,BACTEC,-,EC50,-,>12.5 µg/mL
COc1cccc(N2CCN(CC(O)COc3cc4c(c5c3CCCC5)CCCC4)CC2)c1,H37Rv,-,resazurin,-,MIC bound,-,>6.25 µg/mL
Clc1nc2c(-c3ccccc3)ncnc2n1Cc1ccccc1,H37Rv,-,BACTEC,-,EC50,-,<12.5 µg/mL
COc1ccc(/C=N/NC(=O)CNC(=O)Nc2n[nH]c(=S)s2)cc1,H37Rv,-,BACTEC,-,MIC bound,-,>12.5 µg/mL
CCCCC[C@H]1CCCCCCCCCC(=O)O[C@H]2[C@H](O)[C@@H](CO)OC(O[C@H]3[C@H](O1)O[C@H](C)C(O)(O)[C@@H]3O)[C@@H]2OC1O[C@@H](C)[C@H](OC(=O)C(C)CC)[C@@H](OC2O[C@@H](C)[C@H](O)[C@@H](O)[C@H]2O)[C@H]1OC(=O)C(C)CC,-,-,-,-,MIC,-,16 µg/mL
O=C(NNC(=S)Nc1ccccc1Cl)c1ccncc1,H37Rv,-,resazurin,6.25 µg/mL,inhibition,-,32%
COc1cc2c(cc1OC)CN(c1nc3c(cc1[N+](=O)[O-])c(=O)c(C(=O)O)cn3-c1ccc(F)cc1F)CC2,ATCC35801,-,-,-,MIC,-,6.13 µM

Repeating the first 4 entries:

SMILES	strain	cell line	method	dose	endpoint	mutations	value
C=Cc1ncnc2c1ncn2Cc1ccccc1	H37Rv	-	BACTEC	-	EC50	-	>12.5 µg/mL
Cc1nn(C(=O)c2ccncc2)c(C)c1N=Nc1ccc(S(=O)(=O)N=C(N)N)cc1	H37Rv	-	BACTEC	-	MIC bound	-	>12.5 µg/mL
C(#Cc1ncc2ncn(Cc3ccccc3)c2n1)c1ccccc1	H37Rv	-	BACTEC	-	EC50	-	>12.5 µg/mL
COc1nc2ccc(Br)cc2cc1[C@@H](c1ccccc1)[C@@](O)(CCN(C)C)c1cccc2ccccc12	H37Rv	-	fluorescence	-	MIC90	-	0.06 µg/mL